Reference: the supplement of paper PMC9931576
Human monoclonal antibodies against the spike receptor-binding domain (heavy:light variable regions). IC50 against pseudoviruses bearing the spike of naturally observed variants; lower = stronger; >10 µg/ml means not reached at the top dose. No active / inactive call. The stated detection limit is 0.0005 µg/ml; values near or below 0.001 µg/ml lie at the floor of the assay.

B1: BD56-727 (protein)
chain 1: QVQLVESGGGVVQPGRSLRLSCAVSGFTFNTYAIHWVRQAPGKGLEWVALISFDGNNKFYADSVKGRFTISRDNSKNTLFLQMNSLRAEDTAVYFCARPNYFDTSGYYPVAFDFWGQGTLVTVSS
chain 2: SYVLSQPPSVSVAPGKTAGITCGGDSIGSKSVHWYQQKPGQAPVLVIFYDKERPSGIPERFSGSNSGNTATLTISRVEAGDEADYYCQVWDTAVVFGGGTKLTVL
B2: BD56-724 (protein)
chain 1: QVQLVESGGGVVRPGRSLRLSCAASGFTFSLYTMYWVRQAPGKGLEWVALTSYDGSKIYYADSVRGRFTISRDNSKNALYLQMNSLRGDDTALYFCVRDGISYYGSETYKGLDYWGQGTLVTVSS
chain 2: SSELTQPPSVSVSPRQTARITCSGDALANQYAYWYQQKPGQAPVLVIYKDSERPSGIPERFSGSSSGTAVTLTISGVQAEDEADYYCQSADNSPTYVIFGGGTKLTVL
B3: BD56-694 (protein)
chain 1: QVQLVESGGGVDQPGRSLRLSCAASGFIFRNYNMHWVRQAPGKGLEWVAVIWYDGSNKYYADSVKGRFTISRDNSKNTLYLQMNSLRAEDTAVYYCARDPEITAVNIDYWGQGTLVTVSS
chain 2: DVVLTQSPLSLPVTLGQPASISCRSSQSLVHSDGNIYLNWFQQRPGQSPRRLIYKVSNRDSGVPDRFSGSGSGTDFTLKISRVEAEDVGVYHCMQGTHWPYTFGQGTKLEIK
B4: BD56-690 (protein)
chain 1: HVHLLESGPGLVKPSQTLSLTCTVSGDSISSGGYYWTWIRQLPGKGLEWIGYVHNSGTAYYNPSLKNRATISVDSSRNQFSLKLSSVAAADTAVYYCARDMSDWVGYFDHWGQGILVTVSS
chain 2: EIVLTQSPATVSLSPGGRAALSCRASQSVKTYLAWYQQKPGQAPRLLIYDASYRATDIPARFSGSGSGTDFTLTISSLEPEDSAVYYCQQRSNWPPYTFGQGTKLEI
B5: BD56-709 (protein)
chain 1: EVQLVESGGGLVLPGRSLRLSCTASGFTFDDYAMHWVRQAPGKGLEWVSGISWNSDSIAYGDSVKGRFTISRDNAKNSLYLQMNSLRAEDTALYYCAKDGGVNWGNDYGMDVWGQGTTVTVSS
chain 2: DIQMTQSPSSLSASVGDRVTITCRASQTIGNYINWYQQKPGTAPKLLIYATSSLQSGVPSRFSGSGSGTEFTLTISSLQPADFATYYCQQSYGSPPTFGGGTKVEIK
B6: TAU-2230 (protein)
chain 1: EVQLLESGGGLVQPGGSLRLSCAASGFTFSSYAMNWVRQAPGKGLEWVSVISGSGGRTYYADSVKGRFTISRDNSKNTLYLQMNSLRAEDTAVYYCAKDLDIVVVITGDAFDIWGQGTMVTVSS
chain 2: SYELTQPPSVSVSPGQTARITCSGDALPRHYSYWYQQKPGQAPVLLIYKDSERPSGIPERFSGSSSGTTVTLTISGVQAEDEADYYCQSADSSGTYRVFGIGTKVTVL
B7: BD56-723 (protein)
chain 1: EVQLVESGGGLVQPGRSLRLSCTASGFTFADYDMNWVRQAPGKGLEWVGLIRSKAYGGTTEYAASVKGRFIISRDDSKSIAYLQMNSLKTEDTAVYYCSRGGYQDYLWFGESTLFDYWGQGTLVTVSS
chain 2: EIVLTQSPGTLSLSPGERATLSCRASQSISNSYLVWYQQKPGQAPRLLIYGASSRAIGIPDRFSGSGSGTDFTLTISRLEPEDFAVYYCQQYGSSPFTFGPGTKVDIK
B8: BD56-711 (protein)
chain 1: QVQLQESGPGLVQPSKTLSLTCTVSGGSISSGGYYWSWIRQHAGKGLEWIGFIYYSGNTYYNPSLKSRVTISVDTSKNQFSLKLSSVTAADTAVYYCARDGTMVQGVFDYWGQGILVTVSS
chain 2: EIVLTQSPATLSLSPGERATLSCRASQSVSSYLAWYQQKPGQAPRLLIYDASYRATGIPARFSGSGSGTDFTLTISSLEPDDFAVYYCQQRYSWPPFTFGQGTKLDIK
B9: BD56-714 (protein)
chain 1: QVQLVQSGGGVVQPGRSLRLSCTASGFTFSDYPMHWVRQAPGKGLEWVAGISYDGSSKYYADSVKAPITISRDNSENTLFLQMNSLRPEDTALYYCARAAGHPGDYFDYWAQGTLVTVSS
chain 2: SSVLTQPPSVSVAPGKTARITCGGNNIGSKSVHWYQQKPGQAPVLVIYYDSGRPSGIPERFSGSNSGNTATLTISRVEAGDEADYFCQVWDSTSDHPGWVFGGGTKVTVL
B10: BD56-729 (protein)
chain 1: QVQLVESGGGVVQPGRSLRLSCAASGFAFSTYAMHWVRQAPGKGLDWVAVMSYDGSNKYYADSVKGRFTISRDNSKNTLYLQMNSLRAEDTAVYYCAKTETYYYDRSTYYHYYGMDVWGQGTTVTVSS
chain 2: QSVLTQPPSVSAAPGQKVTISCSGSSSNIGNNYVSWYQQLPGTAPKIVIYDNYKRPSGIPDRFSGSKSGTSATLGITGLQTGDEADYYCGTWDSSLSAGVFGGGTKLTVL
B11: BD56-691 (protein)
chain 1: QVQLVESGGGVVQPGRSLRLSCATSGFTFNKYGMHWVRQAPGKGLDWVAVISYDGSAKYNGDSVKGRFTISRDNSKNTLYLQINSLRPEDTAVYFCAKDPYQYGSGSNNYFDYWGQGTLVTVSS
chain 2: SYVLTQAPSVSVAPGQTARITCAENNIGSKSVHWYRQKPGQAPVLVVFDDSDRPSGIPERFSGSNSGSTATLTISKVEAGDEADYYCQVWDSGDWVFGGGTKLTVL
B12: BD56-718 (protein)
chain 1: EVQLLESGGDLVQPGGSLRLSCVVSGFTFRRYAMNWVRQAPGKGLEWVSAISGSGDSTYYADSVKGRFTISRDNSKNTLFLQLNSLRAEDTAVYYCAKGPREGSDYFEFWGQGTLVTVSS
chain 2: DIQMTQSPSTLSASVGDRVTITCRASQSISSWLAWYQQKPGKAPKLLIFDASSLETGVPSRFSGSGSGTEFTLTISSLRPEDFATYYCQQYNSYSYTFGQGTKLEIK

How the values were obtained:
Experiment in all cases: pseudovirus neutralization IC50; higher = weaker neutralization
[1] = target: SARS-CoV-2 Omicron BA.1 spike pseudovirus
Description: (§1)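 Single-round VSV luciferase pseudovirus mixed with antibody dilutions for 1 h and put on Huh-7 cells for about a day; IC50 from the dose curve.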

[2] = target: SARS-CoV-2 Omicron BA.2 spike pseudovirus
Description: as §1

[3] = target: SARS-CoV-2 Omicron BA.2.75 spike pseudovirus
Description: as §1

[4] = target: SARS-CoV-2 Omicron BA.5 spike pseudovirus
Description: as §1

[5] = target: SARS-CoV-2 Omicron BQ.1.1 spike pseudovirus
Description: as §1

[6] = target: SARS-CoV-2 Omicron XBB spike pseudovirus
Description: as §1

[7] = target: SARS-CoV-2 early D614G spike pseudovirus
Description: as §1

| Binder | pseudovirus neutralization IC50 [1] | pseudovirus neutralization IC50 [2] | pseudovirus neutralization IC50 [3] | pseudovirus neutralization IC50 [4] | pseudovirus neutralization IC50 [5] | pseudovirus neutralization IC50 [6] | pseudovirus neutralization IC50 [7] |
| --- | --- | --- | --- | --- | --- | --- | --- |
| B1 | 4.4 µg/mL | 5.99 µg/mL | 6.39 µg/mL | > 10 µg/mL | > 10 µg/mL | > 10 µg/mL | > 10 µg/mL |
| B2 | 3.66 µg/mL | 4.17 µg/mL | 3.19 µg/mL | 3.25 µg/mL | 2.17 µg/mL | 4.43 µg/mL | 4.46 µg/mL |
| B3 | 1.77 µg/mL | 1.66 µg/mL | 1.82 µg/mL | 1.67 µg/mL | 3.9 µg/mL | 4.81 µg/mL | > 10 µg/mL |
| B4 | > 10 µg/mL | > 10 µg/mL | > 10 µg/mL | > 10 µg/mL | > 10 µg/mL | > 10 µg/mL | > 10 µg/mL |
| B5 | 3.97 µg/mL | 3.82 µg/mL | 5.56 µg/mL | 4.85 µg/mL | > 10 µg/mL | 4.64 µg/mL | > 10 µg/mL |
| B6 | > 10 µg/mL | > 10 µg/mL | > 10 µg/mL | > 10 µg/mL | > 10 µg/mL | > 10 µg/mL | 1.04 µg/mL |
| B7 | 4.74 µg/mL | 6.42 µg/mL | 4.43 µg/mL | 5.1 µg/mL | > 10 µg/mL | 5.59 µg/mL | 1.06 µg/mL |
| B8 | > 10 µg/mL | > 10 µg/mL | > 10 µg/mL | > 10 µg/mL | > 10 µg/mL | > 10 µg/mL | > 10 µg/mL |
| B9 | > 10 µg/mL | > 10 µg/mL | > 10 µg/mL | > 10 µg/mL | > 10 µg/mL | > 10 µg/mL | > 10 µg/mL |
| B10 | 0.212 µg/mL | 0.252 µg/mL | 0.254 µg/mL | > 10 µg/mL | > 10 µg/mL | > 10 µg/mL | 0.306 µg/mL |
| B11 | > 10 µg/mL | > 10 µg/mL | > 10 µg/mL | > 10 µg/mL | > 10 µg/mL | > 10 µg/mL | > 10 µg/mL |
| B12 | 3.26 µg/mL | 3.49 µg/mL | 3.96 µg/mL | 3.95 µg/mL | 6.66 µg/mL | 7.1 µg/mL | > 10 µg/mL |
